{"sequences": {"note": "Amino acid sequences for entries named in this document (tags omitted). Residues count along the entry.", "UniProt O24973, 3-225": "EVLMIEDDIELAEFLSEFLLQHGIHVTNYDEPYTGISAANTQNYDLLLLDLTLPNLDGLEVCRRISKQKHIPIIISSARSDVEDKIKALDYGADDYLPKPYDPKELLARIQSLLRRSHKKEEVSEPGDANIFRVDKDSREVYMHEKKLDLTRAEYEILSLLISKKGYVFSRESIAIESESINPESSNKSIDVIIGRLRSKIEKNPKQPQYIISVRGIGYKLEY"}, "source": "paper PMC11162790", "key": {"[1]": {"target": "ArsR-nP (non-phosphorylated His6-ArsR) (Helicobacter pylori SMI109) (UniProt O24973)", "assay": "competition with a labelled probe", "details": "up to 20 nM competitor vs 5 nM TET-PsabA; Buffer F: 50 mM Tris-acetate pH 7.5, 100 mM K-glutamate, 20 mM Mg-acetate, 5% glycerol, 0.1 ug poly dI-dC, 25 C, 30 min; EMSA 5-7 nM DNA, footprint 25 nM DNA; recombinant protein; residues 3-225; protein details: N-terminal His6 (pET28a), retained; probe letters rebuilt from the primers and the genome; part of a longer molecule"}, "[2]": {"target": "ArsR-P (phosphorylated His6-ArsR) (Helicobacter pylori SMI109) (UniProt O24973)", "assay": "EMSA", "details": "Buffer F: 50 mM Tris-acetate pH 7.5, 100 mM K-glutamate, 20 mM Mg-acetate, 5% glycerol, 0.1 ug poly dI-dC, 25 C, 30 min, EMSA 5-7 nM DNA, footprint 25 nM DNA, recombinant protein, residues 3-225, protein details: N-terminal His6 (pET28a), retained, label: TET on primer 485, probe letters rebuilt from the primers and the genome, part of a longer molecule"}, "[3]": {"system": "sigma70-RNAP holoenzyme (Escherichia coli)", "assay": "DNase I footprinting", "details": "300 nM, Buffer F: 50 mM Tris-acetate pH 7.5, 100 mM K-glutamate, 20 mM Mg-acetate, 5% glycerol, 0.1 ug poly dI-dC, 25 C, 30 min, commercial protein, label: TET on primer 485, probe letters rebuilt from the primers and the genome, part of a longer molecule"}}, "note": "For at least one entry, the source does not settle the construct or the ends of the probe."}
{"sequence": "CTTATCTAACTCTTTTGGGGTGAGTTTCATCTCATTCTCCTATTCTTAAAGTGTTTTTCCTTGAAGACATAACGAAATCAAGGTTGGATGTAATTGTAGCAATCTTTTGATTTACTAAGATTAACAGAAGCGCTCATTAACTAATTATTATTTAAAATGAATTAGTGTTATAGTTTTGAAGCGCTATAAAAGCGTTATTGGGAGCGCGTTTAATACCCCTTTAGAATTTATAAAGATCAAAAACTCGCAAAAAAATGAGAATTAAAATTGGAGTGATAATGGTGGCCACGACTGGACTTGAACCAGCGGCCACTACCATGTCAAGGTAGTGCTCTA (double strand) [PureA competitor 424 bp]", "values": [{"measurement": "binding result", "setting": "[1]", "value": "binds"}]}
{"sequence": "TCTAGCAATGTGTGGCAACAACAAACGATCCGACAAAACTTCAGCGTTTTTAGGAATAAAGAAGTTTTTGTCAGTTACGCGTTCTTGTTTTAGTGTGGCTTCGTTCCCATTAAACACTGATGATAAAATTCAAAAGATGATTTTATCGTTACAAAAATCAACACTTCAAAGATAAATAGGTTAAAATACTCCAAAATCTTTTTTTTTTTTTGAAATCCAATAAATTTATAGTAAAATTAGGTTCTGATCATGAGAATGTGAACTGACAACATAGTCATAGTCAAAAACATTACTTTAAGGAACACTTTTATGAAAAAG (double strand) [PsabA region 4* (scrambled +2 to +38)]", "values": [{"measurement": "half-maximal binding", "setting": "[2]", "value": 1390, "unit": "nM"}, {"measurement": "binding result", "setting": "[3]; core promoter -34 to +14", "value": "binds"}]}
{"sequence": "TCTAGCAATGTGTGGCAACAACAAACGATCCGACAAAACTTCAGCGTTTTTAGGAATAAAGAAGTTTTTGTCAGTTACGCGTTCTTGTTTTAGTGTGGCTTCGTTCCCATTAAACACTGATGATAAAATTCAAAAGATGATTTTATCGTTACAAAAATCAACGCTTCTCTTGAGCTGCTACAGCTGGTTAGATTCTGATTTTTTTTTTTTTGAAATCCAATAAATTTATAGTAAAATTAGGTTCATTGTAAATATATTATCACTTCATGATATTCTTACAACAAAAACATTACTTTAAGGAACACTTTTATGAAAAAG (double strand) [PsabA region 3* (scrambled -77 to -48)]", "values": [{"measurement": "binding result", "setting": "[3]; core promoter -17 to +24", "value": "binds"}]}
